A mixed list of measured activities; the numbers were collected in NIAID ChemDB.

Common to all: tests in culture; agent: Vesicular stomatitis virus; read-out: EC50

Blank or dashed fields: not listed here. ECn: concentration that inhibits the pathogen or its effect by n%. Lines come from different laboratories, so protocols vary.

SMILES | cell line | method | result
Nc1ncnc2c1ncn2[C@@H]1O[C@H](CO)[C@@H](O)[C@@H]1O | PRK | cytopathic effect | 30 µg/mL
CCc1cn([C@@H]2OC3COP(=O)(O)OC3[C@H]2O)c(=O)nc1N |  |  | >400 µg/mL
O=c1[nH]c(=O)n(COCCO)cc1F | PRK | cytopathic effect | >400 µg/mL
CCCCc1cn([C@@H]2OC3COP(=O)(O)OC3[C@H]2O)c(=O)nc1N |  |  | >400 µg/mL
COC[C@H]1O[C@@H](n2cnc3c(N)ncnc32)[C@H](O)[C@@H]1O | PRK | cytopathic effect | >100 µg/mL
CCCCCCc1cn([C@@H]2O[C@H](COP(=O)(O)O)[C@@H](O)[C@H]2O)c(=O)nc1N |  |  | >400 µg/mL
[N-]=[N+]=N[C@@H]1[C@H](O)[C@@H](CO)O[C@H]1n1ccc(N)nc1=O | PRK | cytopathic effect | >200 µg/mL
CCCCCc1cn([C@@H]2O[C@H](COP(=O)(O)O)[C@@H](O)[C@H]2O)c(=O)nc1N |  |  | >400 µg/mL
CN(C)c1nc2c(=O)[nH]c(N)nc2n1COCCO | PRK | cytopathic effect | >400 µg/mL
N[C@@H]1[C@H](O)[C@@H](CO)O[C@H]1n1ccc(=O)[nH]c1=O | PRK | cytopathic effect | >200 µg/mL
Nc1ccn(COCCO)c(=O)n1 | PRK | cytopathic effect | >400 µg/mL
Nc1ncnc2c1ncn2C[C@@H](CO)OCP(=O)(O)O | ESM | cytopathic effect | >400 µg/mL
Cc1nc2c(=O)[nH]c(N)nc2n1COCCO | PRK | cytopathic effect | >400 µg/mL
CC(C)c1cn([C@@H]2O[C@H](COP(=O)(O)O)[C@@H](O)[C@H]2O)c(=O)nc1N |  |  | >400 µg/mL
CO[C@H]1[C@H](O)[C@H](n2cnc3c(N)ncnc32)O[C@@H]1CO | PRK | cytopathic effect | >100 µg/mL
CC(=O)OCCOCn1cnc2c(Cl)nc(N)nc21 | PRK | cytopathic effect | >400 µg/mL

For reference, 2 entries again:

{"SMILES": "COC[C@H]1O[C@@H](n2cnc3c(N)ncnc32)[C@H](O)[C@@H]1O", "cell line": "PRK", "method": "cytopathic effect", "result": ">100 µg/mL"}
{"SMILES": "N[C@@H]1[C@H](O)[C@@H](CO)O[C@H]1n1ccc(=O)[nH]c1=O", "cell line": "PRK", "method": "cytopathic effect", "result": ">200 µg/mL"}